25 compounds from PubChem BioAssay AID602405 (Broad Institute, 2012) can be followed below.

Only a part is listed here, and it is no random draw. The source made the active and inactive calls. Rule as the data show it: active = inhibition above about 16% (passing the limit was not always enough); inconclusive = no clear call, values can overlap the other calls; inactive = below that.

This assay concerns UDP-N-acetylbacillosamine N-acetyltransferase PglD (Campylobacter jejuni). The assay is described as follows: C. jejuni PglD acetyltransferase inhibitors, primary screen, biochemical, DTNB colorimetric, single point (AID 602405). Conditions: purified PglD enzyme, DTNB colorimetric CoA detection; at 12.5 µM; active compounds read high.
In the case of `CN(C)C1(CNC(=O)c2cccc(C#N)c2)CCCCC1`, the inhibition was inactive: -2.87%.

As for `CC(C)(C)n1nnnc1C(c1cccc2ccccc12)N1CCC(n2c(=O)[nH]c3ccccc32)CC1` (stereo not given), the inhibition was inactive: 5.07%.

`CC(C)(C)OC(=O)N1CCC(N(C(=O)c2ccccc2)c2ccc(Cl)cc2)CC1`: the inhibition was inactive: 4.63%.

For the compound `N#Cc1ccc(C(=O)NCC2(N3CCCCC3)CCCCC2)cc1`, the inhibition is inactive: -6.66%.

For `N/C(=N\O)c1c(N)no[n+]1[O-]`, the inhibition was inactive: 0.725%.

For `CCOC(=O)N1CCC(Nc2ccc(C)cc2)CC1`, the inhibition is inactive: -0.287%.

As for `COc1cccc(C(c2nnnn2C(C)(C)C)N2CCC(n3c(=O)[nH]c4ccccc43)CC2)c1OC` (stereo not given), the inhibition is inactive: -1.75%.

As for `CCCCn1nnnc1C(c1cccc(OC)c1OC)N1CCC(n2c(=O)[nH]c3ccccc32)CC1` (stereo not given), the inhibition is inactive: -1.62%.

Regarding `O=c1[nH]c2ccccc2n1C1CCN(C(c2cccs2)c2nnnn2C2CCCC2)CC1` (stereo not given), the inhibition is inactive: 0.524%.

`O=C(NCC1(N2CCOCC2)CCCCC1)c1cc(Br)ccc1Cl`: the inhibition was inactive: 3.26%.

As to `COc1cc(C(=O)NCC2(N3CCOCC3)CCCCC2)cc(OC)c1C`, the inhibition is inactive: -7.22%.

As to `CCCCn1nnnc1C(c1ccccc1)N1CCC(n2c(=O)[nH]c3ccccc32)CC1` (stereo not given), the inhibition was inactive: 5.86%.

As to `O=c1[nH]c2ccccc2n1C1CCN(C(c2ccnc3ccccc23)c2nnnn2C2CCCC2)CC1` (stereo not given), the inhibition is inactive: 5.18%.

As for `O=c1[nH]c2ccccc2n1C1CCN(C(c2cccs2)c2nnnn2C2CCCCC2)CC1` (stereo not given), the inhibition is inactive: 1.19%.

In the case of `CN1CCC(Nc2cccc(F)c2)CC1`, the inhibition was inactive: -1.09%.

`O=C(NCC1(N2CCCCC2)CCCCC1)c1cncc(Br)c1`: the inhibition was inactive: 2.19%.

Take `CCCOc1ccc(C(=O)NCC2(N(C)C)CCCCC2)cc1OC`: the inhibition was inactive: 4.32%.

With `Cc1ccc(C(=O)NCC2(N(C)C)CCCCC2)o1`, the inhibition is inactive: 1.55%.

Regarding `COc1ccc(C(c2nnnn2C2CCCC2)N2CCC(n3c(=O)[nH]c4ccccc43)CC2)cc1` (stereo not given), the inhibition was inactive: -4.02%.

For `CN(C)c1cccc(C(=O)NCC2(N3CCCCC3)CCCCC2)c1`, the inhibition was inactive: 0.417%.

Turning to `CCCCn1nnnc1C(c1ccccc1OC(F)(F)F)N1CCC(n2c(=O)[nH]c3ccccc32)CC1` (stereo not given), the inhibition was inactive: 4.94%.

Regarding `CCCCn1nnnc1C(c1ccnc2ccccc12)N1CCC(n2c(=O)[nH]c3ccccc32)CC1` (stereo not given), the inhibition is inactive: 4.48%.

Regarding `O=C(NCC1(N2CCOCC2)CCCCC1)c1cc(F)c(F)cc1Cl`, the inhibition is inactive: -0.175%.

As for `CCC(c1nnnn1C(C)(C)C)N1CCC(n2c(=O)[nH]c3ccccc32)CC1` (stereo not given), the inhibition was inactive: 0.325%.

For the compound `COc1cc(OC)c(C(=O)NCC2(N(C)C)CCCCC2)cc1OC`, the inhibition is inactive: -1.04%.
